Data reported in patent US10611795B2, “Methods for viral inactivation using eco-friendly detergents” (priority 2013, dated 2020).

Tests used:
MAb1 [1] = experiment: Size exclusion chromatography (SEC) of product after detergent treatment; details: MAb1 HCCF, detergent mixing study
[2] = Roche's inherent biodegradability test (OECD 302); cited from earlier work
MAb1 [3] = experiment: iCIEF charge heterogeneity after detergent treatment; details: MAb1 HCCF, detergent mixing study
DNA = DNA quantitation (TaqMan PCR assay); details: three hours ambient
MAb3 [4] = experiment: iCIEF charge heterogeneity after detergent treatment; details: three hours ambient
MAb3 [5] = experiment: Size exclusion chromatography (SEC) of product after detergent treatment; details: three hours ambient

Molecule | SEC % HMWS (MAb1 [1]) [%] | SEC % LMWS (MAb1 [1]) [%] | TOC removal by day 28 [2] | iCIEF % Acidic (MAb1 [3]) [%] | iCIEF % Basic (MAb1 [3]) [%] | iCIEF % Main (MAb1 [3]) [%] | DNA (ppm), HCCF + Detergent (DNA; MAb3 HCCF) | DNA (ppm), Adj. ProA pool + Detergent (DNA; MAb3 adjusted protein A pool) [ppm] | iCIEF-acidic (%) (MAb3 [4]; MAb3 HCCF + Detergent) | iCIEF-basic (%) (MAb3 [4]; MAb3 HCCF + Detergent) | iCIEF-main (%) (MAb3 [4]; MAb3 HCCF + Detergent) | iCIEF-acidic (%) (MAb3 [4]; MAb3 N. ProA pool + detergent) | iCIEF-basic (%) (MAb3 [4]; MAb3 N. ProA pool + detergent) | iCIEF-main (%) (MAb3 [4]; MAb3 N. ProA pool + detergent) | SEC-HMWS (%) (MAb3 [5]; MAb3 HCCF + Detergent) | SEC-LMWS (%) (MAb3 [5]; MAb3 HCCF + Detergent) | SEC-main (%) (MAb3 [5]; MAb3 HCCF + Detergent) | SEC-HMWS (%) (MAb3 [5]; MAb3 N. ProA pool + detergent) | SEC-LMWS (%) (MAb3 [5]; MAb3 N. ProA pool + detergent) | SEC-main (%) (MAb3 [5]; MAb3 N. ProA pool + detergent)
Polysorbate 80 | 7.5 | 0.2 | test (OECD 302): 50% | 33.7 | 2.2 | 64.1 |  |  |  |  |  |  |  |  |  |  |  |  |  | 
Polysorbate 20 |  |  | test (OECD 302): 40% |  |  |  |  |  |  |  |  |  |  |  |  |  |  |  |  | 
CCCCCCCC(=O)O [caprylate, caprylic acid] |  |  |  |  |  |  | <LOQ | 0.002 | 57.5 | 2.71 | 39.8 | 52.0 | 3.38 | 44.6 | 0.8 | 0.1 | 99.1 | 1.8 | 0.1 | 98.1
